The record followed here is patent US20090143313A1 (priority 2004, published 2009).

For the assay, the system named is guinea pig-adapted PIC (Pichinde virus). The assay can be described thus: Pilot studies of SCV-07 in PIC-infected guinea pigs (Examples 1 and 2).

As to `N[C@H](CCC(=O)N[C@@H](Cc1c[nH]c2ccccc12)C(=O)O)C(=O)O` [SCV-07, γ-D-glutamyl-L-tryptophan], the “Survival curve vs control animals (group 0), Kaplan-Meier log-rank p” value (Group 2: 1 μg/kg i.p. once on the same day as infection) was determined as 0.77. The “Average percent weight gain by PIC-infected guinea pigs 10-11 dpi, Mean ± Std Dev” value (Group 2: 1 μg/kg i.p. once on the same day as infection, 100 pfu PIC i.p.) is −3.75 ± 12.48%. The Mortality vs controls result was “Mortality was decreased” (Group 6: 100 μg/kg i.p. on each of the first five days after infection) and “decreased mortality” (Groups 1-3: 1 μg/kg i.p. before, on the day of or the day after infection, trend, not significant).
